PubChem BioAssay AID624099 | ICCB-Longwood, 2012
This is one part, drawn at random, of about 21,000 reagents tested. 497 of all reagents (2.4%) count as active. 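Higher z means weaker E2 silencing; only reporter increases were scored, and knock-downs that hurt cell survival may mask genuine repressor factors.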

Purpose: 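Human genes that papillomavirus E2 requires to repress the HPV18 LCR promoter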 (primary screen)
Cells: human C33A cervical carcinoma cells (HPV-negative) stably expressing BPV1 E2 and an HPV18 LCR luciferase reporter
Reagent: siRNA pool against human genes, 40 nM
Timing: 72 h
Measurement: 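HPV18 LCR reporter light per well, converted to plate-wise z-scores that exclude control wells, and averaged over triplicate plates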
Reading the numbers: mean z-score and z-score: higher = stronger reporter signal, weaker E2 silencing
Rule for the call: 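Hit if mean z-score reaches 2 and two or more of three replicate z-scores also reach 2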

RPL36: mean z-score = -4.28; z-score, replicate A = -4.08; z-score, replicate B = -4.41; z-score, replicate C = -4.35; call = inactive
KRT12: mean z-score = 0.35; z-score, replicate A = 0.55; z-score, replicate B = 0.29; z-score, replicate C = 0.2; call = inactive
USP2: mean z-score = -1.73; z-score, replicate A = -1.73; z-score, replicate B = -1.64; z-score, replicate C = -1.83; call = inactive
CEP85L: mean z-score = 0.74; z-score, replicate A = 0.9; z-score, replicate B = 0.76; z-score, replicate C = 0.57; call = inactive
SLC9D1: mean z-score = -1.07; z-score, replicate A = -0.37; z-score, replicate B = -1.25; z-score, replicate C = -1.58; call = inactive
CD163: mean z-score = -1.35; z-score, replicate A = -1.38; z-score, replicate B = -1.41; z-score, replicate C = -1.28; call = inactive
MFSD8: mean z-score = -0.64; z-score, replicate A = -0.29; z-score, replicate B = -0.98; z-score, replicate C = -0.64; call = inactive
ZNF718: mean z-score = 1.16; z-score, replicate A = 0.87; z-score, replicate B = 1; z-score, replicate C = 1.62; call = inactive
H2AC12: mean z-score = -0.31; z-score, replicate A = -0.26; z-score, replicate B = -0.32; z-score, replicate C = -0.35; call = inactive
NDUFS6: mean z-score = 0.43; z-score, replicate A = 0.36; z-score, replicate B = 0.53; z-score, replicate C = 0.4; call = inactive
LOC401464 (retired record): mean z-score = 0.39; z-score, replicate A = 0.25; z-score, replicate B = 0.76; z-score, replicate C = 0.16; call = inactive
STARD13: mean z-score = 0.85; z-score, replicate A = 1.05; z-score, replicate B = 1.51; call = inactive

An excerpt from above, showing only “mean z-score”:
CEP85L = 0.74
SLC9D1 = -1.07
